Reference: US20090196872A1 (KIRIN BEER, published 2009)

Key:
[1] = target: M2 protein expressed on A/PR/8/34 infected MDCK cells (influenza A virus A/PR/8/34, UniProt P06821 1-97); assay: cell-based or functional assay
M2P peptide = M2P peptide (influenza A virus); assay: peptide ELISA, grade relative to wild-type M2
[2] = target: T1, M2 protein expressed on A/HK/1/68 infected MDCK cells (influenza A virus A/HK/1/68); assay: cell-based ELISA, half-saturating antibody concentration
T1 construct: whole, on cells

M2K peptide = M2K peptide (influenza A virus)

Row | Binder | ADCC: lysis of A/PR/8/34 infected MDCK cells, antibody 5 ug/mL, […] cells [1] [%] | binding result (M2P peptide) | Kd [2] [nM] | binding result (M2K peptide)
1 | human anti-M2 monoclonal antibody no. Z3G1 (recombinant IgG1 type Z3, CHO; ATCC PTA-5967) (antibody, V domains shown) VH: QVQLVQSGAEVKKPGASVKVSCKASGYTFTSYGISWVRQAPGQGLEWMGWISAYNGNTNYAQKLQGRVTMTTDTSTSTAYMELRSLRSDDTAVYYCARAAAGGYFQHWGQGTLVTVSS VL: QSVLTQPPSASGTPGQRVTISCSGSNSNIGSKTVNWYQQLPGTAPKLLISSNNQRPSGVPDRFSGSKSGTSASLAISGLQSEDEADYYCAAWDDSLNGVVFGGGTKLTVLG | ~50 | binds | 0.488 | binds
2 | human anti-M2 monoclonal antibody L66 (antibody, V domains shown) VH: EVQLVESGGGVVRPGGSLRLSCAASGFTFDDYGMSWVRQAPGKGLEWVSGINWNGGSTGYADSVKGRFTISRDNAKNSLYLQMNSLRAEDTALYYCARDRVTMVRGVIMDYYGMDVWGQGTTVTVSS VL: QTVVTQEPSLTVSPRGTVTLTCSSSTGAVTSGYYPGWFQLKPGQAPMSLIYSARKKHSWTPARFSGSLLGGKAALTLSGVQPEDEAEYYCLLYYGGAYVFGTGTKVTVLG | ~50 |  |  | 
3 | human anti-M2 monoclonal antibody N547 (antibody, V domains shown) VH: not shown VL: QSVLTQPPSMSAAPGQKVTISCSGSSSNIGNNYISWYQQLPGTAPKVLIYDNNKRPSGIPDRFSGSKSGTSATLGITGLQTGDEADYYCGSWDSSLSAGVFGTGTKVTVLG | ~50 |  |  | 
4 | human anti-M2 monoclonal antibody C40G1 (antibody, V domains shown) VH: QLQLQESGPGLVKPSETLSLTCTVSGGSISSSFYYCGWIRQPPGKGLEWIGSIYYRGSTYYNPSLKSRVTISVDTSKNQFSLKLSSVTAADTAVYYCARRVTMVRGVKGDYFDYWGQGTLVTVSS VL: DIQMTQSPSSLSASVGDRVTITCRASQGISSWLAWYQQKPEKVPKSLIYAASSLQSGVPSRFSGSGSGTDFTLTISSLQPEDFATYYCQQYNYYPLTFGGGTKVEIKR | ~50 |  |  | 
